PubChem BioAssay AID1259414 – Drosophila RNAi Screening Center – 2018
The deposit covers about 24,000 reagents; below is an unselected part of those with a known target gene and a result. In the full data, about 1,210 (5%) are marked active. 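Inactive calls also include excluded dsRNAs with several or no targets, genes unexpressed in JW18, and well A1, regardless of score.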 No sequences are given here.

Screen: 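Fly genes that alter Wolbachia amount inside host cells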 (primary screen)
Cells: Drosophila JW18 cells infected with Wolbachia
Knock-down reagent: long dsRNA against Drosophila genes, 0.25 µg dsRNA per well of a 384-well plate
Time to read-out: 5 days
Treatment: cells persistently infected with Wolbachia before knock-down; no added drug
Detection: 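Imaged fluorescence in situ signal for Wolbachia 23S rRNA per DAPI-counted host cell, given as a robust z-score within each plate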
Reading the numbers: Wolbachia per cell robust z: higher = more Wolbachia per host cell than the plate typical
Active means: 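Active if absolute robust z reaches 1.5 in two or more of three replicates, leaving out multi- or no-target dsRNAs, genes unexpressed in JW18 and A1 wells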

gene knocked down | amplicon | Wolbachia per cell robust z, rep 1 | Wolbachia per cell robust z, rep 2 | Wolbachia per cell robust z, rep 3 | activity call
CG4186 | DRSC11753 | 0.238 | 1.42 | 0.418 | inactive
CG4186 | DRSC41321 | 0.515 | 0.461 | 0.681 | inactive
Pli (Pellino) | DRSC16792 | 0.863 | -0.018 | 0.401 | inactive
FucTA (alpha1,3-fucosyltransferase A) | DRSC10733 | -0.182 | -0.87 | -7.32 | inactive
CG15422 | DRSC00436 | 1.22 | -5.26 | 0.596 | inactive
CG15422 | DRSC25238 | 0.0598 | 0.79 | 0.651 | inactive
CG4570 | DRSC15602 | 0.488 | 0.38 | -0.69 | inactive
CG14721 | DRSC29246 | 0.208 | -0.359 | -0.164 | inactive
CG14721 | DRSC41611 | 1.11 | -1.45 | 0.325 | inactive
MagR (Magnetic receptor) | DRSC20092 | -1.37 | -0.119 | -1.5 | inactive
CG13631 | DRSC23168 | -0.602 | -3.3 | -13.7 | inactive
CG13631 | DRSC28727 | 0.565 | -0.222 | -0.0716 | inactive
CG43117 | DRSC13767 | -0.519 | -1.29 | -1.26 | inactive
CG43117 | DRSC26060 | 0.473 | 1.79 | 0.756 | inactive
CG2889 | DRSC18236 | 0.539 | 0.0129 | 1.11 | inactive
babo (baboon) | DRSC07581 | -0.0193 | 0.264 | 0.267 | inactive
babo (baboon) | DRSC40774 | 0.398 | 0.426 | -0.0836 | inactive
Muc12Ea (Mucin 12Ea) | DRSC19937 | -0.666 | -1.71 | -0.452 | inactive
Muc12Ea (Mucin 12Ea) | DRSC28059 | -0.825 | -2.03 | -1.35 | inactive
BBS1 (Bardet-Biedl syndrome 1) | DRSC10196 | -0.429 | 0.26 | 0.00259 | inactive
CG34244 | DRSC38842 | -0.27 | -0.356 | -1.67 | inactive
RhoGAP15B (Rho GTPase activating protein at 15B) | DRSC19924 | 0.167 | -1.51 | -7.23 | active
RhoGAP15B (Rho GTPase activating protein at 15B) | DRSC19925 | 1.4 | 0.61 | -0.251 | inactive
CG32137 | DRSC10271 | 0.113 | 0.721 | -1.21 | inactive
CG31373 | DRSC16052 | -0.279 | 0.166 | 0.104 | inactive
CG31126 | DRSC14623 | 0.941 | -0.903 | -4.73 | inactive
CG15358 | DRSC00388 | -1.06 | 0.125 | -0.407 | inactive
Alp13 (Alkaline phosphatase 13) | DRSC15781 | -0.214 | 1.25 | -0.143 | inactive
